A mixed list of measured activities; the numbers were collected in NIAID ChemDB.

Common to all: tests in culture; species: HIV-1; cells: MOLT-4; endpoint: EC50

Conditions beyond the fields shown may differ between rows. ECn is the concentration giving n% inhibition of infection, replication or growth. An empty or dashed field is not shown.

{"smiles": "O=C1C=CC(=C(c2ccc(O)cc2)c2ccc(O)cc2)C=C1", "strain or isolate": "IIIB", "method": "syncytia", "result": ">100 µg/mL"}
{"smiles": "CC(C)[C@H](NC(=O)[C@H](C/C=C/c1ccccc1)C[C@H](O)[C@H](Cc1ccccc1)NC(=O)OC(C)(C)C)c1ncn[nH]1", "strain or isolate": "IIIB", "result": "0.31 µM"}
{"smiles": "O=C(O)c1cc(O)c(O)c(O)c1", "strain or isolate": "IIIB", "method": "syncytia", "result": "20 µg/mL"}
{"smiles": "Cc1ccccc1CNC(=O)[C@H]1N(C(=O)[C@@H](OC(=O)CCC(=O)NCC(=O)OC[C@H]2O[C@@H](n3cc(C)c(=O)[nH]c3=O)C[C@@H]2N=[N+]=[N-])[C@H](Cc2ccccc2)NC(=O)COc2c(C)cccc2C)CSC1(C)C", "strain or isolate": "LAI", "method": "cytopathic effect", "result": "0.0114 µM"}
{"smiles": "CC1(C)[C@@H](O[C@H]2O[C@H](C(=O)O)[C@@H](O)[C@H](O)[C@H]2O[C@@H]2O[C@H](C(=O)O)[C@@H](O)[C@H](O)[C@H]2O)CC[C@]2(C)[C@H]3C(=O)C=C4[C@@H]5C[C@@](C)(C(=O)O)CC[C@]5(C)CC[C@@]4(C)[C@]3(C)CC[C@@H]12", "strain or isolate": "IIIB", "method": "RT activity", "conditions": "3 d", "result": ">1200 µM"}
{"smiles": "Cc1c(O)cccc1C(=O)N[C@@H](CC(C)C)C(=O)N(c1ccccc1)N(CCO)C(=O)[C@@H]1CCCN1C(=O)OC(C)(C)C", "strain or isolate": "IIIB", "method": "p24", "result": "26.7 µM"}
{"smiles": "Cc1ccccc1CNC(=O)[C@H]1N(C(=O)[C@@H](OC(=O)CCC(=O)NCCC(=O)OC[C@@H]2O[C@H](n3cc(C)c(=O)[nH]c3=O)C[C@H]2N=[N+]=[N-])[C@H](Cc2ccccc2)NC(=O)COc2c(C)cccc2C)CSC1(C)C", "strain or isolate": "LAI", "method": "cytopathic effect", "result": "0.0231 µM"}
{"smiles": "Cc1c(O)cccc1C(=O)N[C@H](C(=O)N(Cc1ccccc1)N(CCO)C(=O)[C@@H]1CCCN1C(=O)OC(C)(C)C)[C@@H](C)O", "strain or isolate": "IIIB", "method": "p24", "result": "103.5 µM"}
{"smiles": "CC(C)[C@H](NC(=O)[C@H](C/C=C/c1ccccc1)C[C@H](O)[C@H](Cc1ccccc1)NC(=O)OC(C)(C)C)c1ncc[nH]1", "strain or isolate": "IIIB", "result": "0.33 µM"}
{"smiles": "COC(=O)[C@@H](NC(=O)[C@@H](NC(=O)[C@@H](C)NC[C@H](O)[C@H](Cc1ccccc1)NC(=O)[C@H](C)NC(=O)[C@H](C)NC(=O)OCc1ccccc1)C(C)C)C(C)C", "strain or isolate": "IIIB", "method": "virus yield", "result": "0.87 µM"}
{"smiles": "O=C(N[C@@H](Cc1ccccc1)C(=O)NCC[C@@H](CO)NC(=O)[C@H](Cc1ccccc1)NC(=O)OCC1c2ccccc2-c2ccccc21)OCC1c2ccccc2-c2ccccc21", "strain or isolate": "IIIB", "method": "p24", "result": "0.11 µM"}
{"smiles": "CC(C)[C@H](NC(=O)[C@H](Cc1ccccc1)C[C@H](O)[C@H](Cc1ccccc1)NC(=O)OC(C)(C)C)C(=O)N/C(N)=N/C(=O)OCc1ccccc1", "strain or isolate": "IIIB", "result": "0.03 µM"}
{"smiles": "COC(=O)[C@@H](NC(=O)[C@@H](NC(=O)CNC[C@H](O)[C@H](Cc1ccccc1)NC(=O)[C@H](C)NC(=O)[C@H](C)NC(=O)OCc1ccccc1)C(C)C)C(C)C", "strain or isolate": "IIIB", "method": "virus yield", "result": "2.1 µM"}
{"smiles": "CC(C)(C)NC(=O)[C@@H]1CCCN1C(=O)C(O)[C@H](Cc1ccccc1)NC(=O)OCc1ccccc1", "strain or isolate": "C-2", "method": "RT activity", "result": ">40 µM"}
{"smiles": "O=C(O)c1ccc(O)c(O)c1", "strain or isolate": "IIIB", "method": "syncytia", "result": "7 µg/mL"}
{"smiles": "CC(C)[C@H](NC(=O)[C@H](C)C[C@H](O)[C@H](Cc1ccccc1)NC(=O)[C@H](C)NC(=O)OCc1ccccc1)C(N)=O", "strain or isolate": "IIIB", "method": "RT activity", "result": ">100 µM"}
{"smiles": "O=C(N[C@@H](Cc1ccccc1)C(=O)NC[C@@H](CO)NC(=O)[C@H](Cc1ccccc1)NC(=O)OCC1c2ccccc2-c2ccccc21)OCC1c2ccccc2-c2ccccc21", "strain or isolate": "IIIB", "method": "p24", "result": "0.34 µM"}
{"smiles": "O=C(O)c1cn(C2CC2)c2c(OC(F)F)c(N3CCN(c4ccc(F)cc4)CC3)c(F)cc2c1=O", "strain or isolate": "IIIB", "method": "p24", "result": "0.043 µM"}
{"smiles": "COc1ccc2ccc3c(c2c1)OC1(CCN(Cc2ccc(C#N)cc2)CC1)NC3=O", "strain or isolate": "IIIB", "method": "ELISA", "result": "5.7 µM"}
{"smiles": "Cc1cc(O)ccc1O", "strain or isolate": "IIIB", "method": "syncytia", "result": "25 µg/mL"}
{"smiles": "CN1C(=O)C(c2cc(Cl)c(O)c(Cl)c2)NC(=O)[C@@H]2NC(=O)C(c3cc(Cl)c(O)c(Cl)c3)NC(=O)[C@H](NC(=O)C(=O)c3cc(Cl)c(O)c(Cl)c3)Cc3c[nH]c4c(cccc34)-c3cc2cc(c3O)Oc2ccc(cc2)CC1C(=O)NC(C(=O)O)c1ccc(O)cc1", "strain or isolate": "IIIB", "method": "syncytia", "result": "1.1 µM"}
{"smiles": "Cc1ccccc1NC(=O)[C@H]1N(C(=O)[C@@H](O)[C@H](Cc2ccccc2)NC(=O)COc2c(C)cccc2C)CSC1(C)C", "strain or isolate": "LAI", "method": "cytopathic effect", "result": "0.1689 µM"}
{"smiles": "CC(C)(C)OC(=O)N[C@@H](Cc1ccccc1)C(=O)NCC[C@@H](CO)NC(=O)[C@H](Cc1ccccc1)NC(=O)OC(C)(C)C", "strain or isolate": "IIIB", "method": "p24", "result": "3.6 µM"}
{"smiles": "Cc1cccc(O)c1O", "strain or isolate": "IIIB", "method": "syncytia", "result": "15 µg/mL"}
{"smiles": "COc1ccccc1N1CCN(c2c(F)cc3c(=O)c(C(=O)O)cn(C)c3c2CN(C)C)CC1", "method": "cytopathic effect / MTT", "result": "0.18 µM"}
{"smiles": "Cc1ccccc1CNC(=O)[C@H]1N(C(=O)[C@@H](OC(=O)CCCC(=O)NCC(=O)OC[C@@H]2O[C@H](n3cc(C)c(=O)[nH]c3=O)C[C@H]2N=[N+]=[N-])[C@H](Cc2ccccc2)NC(=O)COc2c(C)cccc2C)CSC1(C)C", "strain or isolate": "LAI", "method": "cytopathic effect", "result": "0.0008 µM"}
{"smiles": "CC(C)[C@H](NC(=O)[C@@H](NC(=O)[C@H](C)C[C@H](O)[C@H](Cc1ccccc1)NC(=O)[C@H](C)NC(=O)OCc1ccccc1)C(C)C)C(=O)O", "strain or isolate": "IIIB", "method": "RT activity", "result": "0.88 µM"}
{"smiles": "CC(C)[C@H](NC(=O)[C@H](Cc1ccccc1)C[C@H](O)[C@H](Cc1ccccc1)NC(=O)OC(C)(C)C)C(N)=O", "strain or isolate": "IIIB", "result": "0.17 µM"}
{"smiles": "COC(=O)[C@@H](NC(=O)[C@@H](NC(=O)CC[C@H](O)[C@H](Cc1ccccc1)NC(=O)[C@H](C)NC(=O)[C@H](C)NC(=O)OCc1ccccc1)C(C)C)C(C)C", "strain or isolate": "IIIB", "method": "RT activity", "result": "2.3 µM"}
{"smiles": "CSCC[C@H](NC(=O)c1cccc(O)c1C)C(=O)N(Cc1ccccc1)N(CCO)C(=O)[C@@H]1CCCN1C(=O)OC(C)(C)C", "strain or isolate": "IIIB", "method": "p24", "result": "32.4 µM"}
{"smiles": "O=C(O)c1cn(-c2ccc(Cn3cncn3)cc2)c2c(OC(F)F)c(N3CC=C(c4ccccc4)CC3)c(F)cc2c1=O", "method": "cytopathic effect / MTT", "result": "0.009 µM"}
{"smiles": "Cn1c2ccccc2c(=O)c2c(O)cccc21", "strain or isolate": "IIIB", "method": "cytopathic effect / MTT", "result": ">15 µg/mL"}

For reference, 3 entries again:

smiles	strain or isolate	method	conditions	result
CC(C)[C@H](NC(=O)[C@H](Cc1ccccc1)C[C@H](O)[C@H](Cc1ccccc1)NC(=O)OC(C)(C)C)C(=O)N/C(N)=N/C(=O)OCc1ccccc1	IIIB	-	-	0.03 µM
O=C(O)c1cc(O)c(O)c(O)c1	IIIB	syncytia	-	20 µg/mL
Cc1c(O)cccc1C(=O)N[C@H](C(=O)N(Cc1ccccc1)N(CCO)C(=O)[C@@H]1CCCN1C(=O)OC(C)(C)C)[C@@H](C)O	IIIB	p24	-	103.5 µM